Test results published in article PMC11466185, “Mechanisms and efficacy of small molecule latency-promoting agents to inhibit HIV reactivation ex vivo” (JCI Insight, 2024).

Experiments:
PBMCs [1] = test: Cell viability by trypan blue staining after 24 hours; assay type: cell-based, human
Protocol: Figure 1 Screening of candidate LPAs by measuring the change in multiply spliced HIV transcripts after activation. Each drug was tested in PBMCs from 2 ART-suppressed study participants (denoted in the legend by varying symbol shapes). PBMCs were aliquoted into wells at 6 × 10^6 cells/well. After activation, the cells were cultured with antiretrovirals in the presence of individual drugs in DMSO or DMSO alone as control. All conditions were tested in the presence of CD3/28 T cell–activating beads, except for the unactivated DMSO condition. (A) After 24 hours, the viability was measured by trypan blue staining and then normalized to the levels of the activated DMSO (% of activated DMSO). Bars indicate medians. (B) Total cellular RNA was extracted, and the levels of multiply spliced HIV transcripts (TatRev) were measured by RT-ddPCR, normalized to 1 μg of total cellular RNA, and expressed as a percentage of the activated DMSO control (% of activated DMSO). RT-dd, reverse transcription digital droplet; vRNA, viral RNA; HAT, histone acetyltransferase.
(§1) For quantification of cell-associated HIV transcripts, PBMCs were harvested either after 24 hours or after 6 days. The cell viabilities were measured by trypan blue staining; then the cells were pelleted by centrifuging at 300g for 6 minutes and stored at –80°C. For quantification of virion-associated HIV RNA, cell culture supernatant was collected from 6 × 10^6 PBMCs that were treated and activated for 6 days as described above. Residual cells and cellular debris were subsequently removed from the supernatant by differential centrifugation (300g for 6 minutes, then 20,000g for 10 minutes), and the supernatant was stored at –80°C.

PBMCs [2] = assay type: cell-based, human; settings: 6 days after αCD3/28 activation, each row one participant
Protocol: Next, we evaluated the ability of the candidate LPAs to sustain the inhibitory effects during a prolonged ex vivo culture. To this end, PBMCs were cultured in the presence of individual drugs in DMSO or in DMSO alone as control, activated (anti-CD3/CD28), and harvested after 6 days. […] Ruxolitinib and triptolide caused sustained reductions in initiated HIV transcripts (medians relative to activated DMSO: 27%, P = NS and 1%, P = 0.03, respectively; Figure 4A and Table 3). […] However, we decided to test the drug on day 6 because extra cells were available from some study participants.
as §1
Figure S4. […] A) After six days, the viability was measured by trypan blue staining and then normalized to the levels of the activated DMSO (% of activated DMSO). […]

`CN1CC[C@H](c2c(O)cc(O)c3c(=O)cc(-c4ccccc4Cl)oc23)[C@H](O)C1` [alvocidib] was tested, and the “Viability (Fig 1A)” value (PBMCs [1]; study participant 152) was 105.47 % of activated DMSO.
`COc1ccc(-c2cc(=O)c3c(O)cc(O)c(-c4cc(-c5cc(=O)c6c(O)cc(O)cc6o5)ccc4OC)c3o2)cc1` [isoginkgetin] was tested, and the “Cell viability (DMSO αCD3/28 = 100)” value (PBMCs [2]; 25μM) was 109.
In the case of mithramycin A, the “Cell viability (DMSO αCD3/28 = 100)” value (PBMCs [2]; 25nM) is reported as 97.1 and 96.36 and 105.2 and 100.16 and 85.21 and 82.9 and 109.3, the “Viability (Fig 1A)” value (PBMCs [1]; study participant 150b) is reported as 103.906 % of activated DMSO and the “Viability (Fig 1A)” value (PBMCs [1]; study participant 2147b) is reported as 89.3 % of activated DMSO.

Several values for one entry are separate records, joined by “and”; a condition that tells them apart may be missing. Equal entries are not always repeated. Where two headings read alike, the source gives them in different places.
